Tests used:
Test in all cases: cell-based or functional assay
[1] = target: Env of the clade A HIV-1 pseudoviruses of the cross-clade 162-pseudovirus panel (n = 26)
[2] = target: Env of all HIV-1 pseudoviruses of the cross-clade 162-pseudovirus panel (n = 162)
[3] = target: Env of the clade AG HIV-1 pseudoviruses of the cross-clade 162-pseudovirus panel (n = 10)
[4] = target: Env of the clade C HIV-1 pseudoviruses of the cross-clade 162-pseudovirus panel (n = 27)
[5] = target: Env of the clade F HIV-1 pseudoviruses of the cross-clade 162-pseudovirus panel (n = 15)
[6] = target: Env of the clade B HIV-1 pseudoviruses of the cross-clade 162-pseudovirus panel (n = 31)
[7] = target: Env of the clade D HIV-1 pseudoviruses of the cross-clade 162-pseudovirus panel (n = 25)
[8] = target: Env of the clade G HIV-1 pseudoviruses of the cross-clade 162-pseudovirus panel (n = 15)
[9] = target: HIV-1 Env of the clade G pseudoviruses of the cross-clade 162-pseudovirus panel (n=15)
[10] = target: All HIV-1 pseudoviruses (Env) of the cross-clade 162-pseudovirus panel, n=162
[11] = target: HIV-1 clade AE pseudoviruses (Env) of the cross-clade 162-pseudovirus panel, n=10
[12] = target: HIV-1 clade G pseudoviruses (Env) of the cross-clade 162-pseudovirus panel, n=15
[13] = target: 162-pseudovirus panel representing all major circulating HIV-1 subtypes
[14] = target: HIV-1 clade B pseudoviruses (Env) of the cross-clade 162-pseudovirus panel, n=31
[15] = target: HIV-1 clade C pseudoviruses (Env) of the cross-clade 162-pseudovirus panel, n=27
[16] = target: HIV-1 Env of the clade AE pseudoviruses of the cross-clade 162-pseudovirus panel (n=10)
[17] = target: HIV-1 clade AG pseudoviruses (Env) of the cross-clade 162-pseudovirus panel, n=10
[18] = target: HIV-1 clade D pseudoviruses (Env) of the cross-clade 162-pseudovirus panel, n=25
[19] = target: HIV-1 clade F pseudoviruses (Env) of the cross-clade 162-pseudovirus panel, n=15
[20] = target: HIV-1 clade A pseudoviruses (Env) of the cross-clade 162-pseudovirus panel, n=26
[21] = target: HIV-1 Env of the clade AG pseudoviruses of the cross-clade 162-pseudovirus panel (n=10)
[22] = target: HIV-1 Env of all pseudoviruses of the cross-clade 162-pseudovirus panel (n=162)
[23] = target: HIV-1 Env of all pseudoviruses of the cross-clade 162-pseudovirus panel (n = 162)

B1: PGT-122 (antibody, V domains shown)
VH: QVHLQESGPGLVKPSETLSLTCNVSGTLVRDNYWSWIRQPLGKQPEWIGYVHDSGDTNYNPSLKSRVHLSLDKSKNLVSLRLTGVTAADSAIYYCATTKHGRRIYGVVAFKEWFTYFYMDVWGKGTSVTVSS
VL: TFVSVAPGQTARITCGEESLGSRSVIWYQQRPGQAPSLIIYNNNDRPSGIPDRFSGSPGSTFGTTATLTITSVEAGDEADYYCHIWDSRRPTNWVFGEGTTLIVL
Median IC50 against viruses neutralized with an IC50 <50 µg/ml [1]: 0.07 µg/mL
Median IC50 against viruses neutralized with an IC50 <50 µg/ml [2]: 0.05 µg/mL
Median IC50 against viruses neutralized with an IC50 <50 µg/ml [3]: 2.75 µg/mL
Median IC50 against viruses neutralized with an IC50 <50 µg/ml [4]: 0.03 µg/mL
Median IC50 against viruses neutralized with an IC50 <50 µg/ml [5]: 0.43 µg/mL
Median IC50 against viruses neutralized with an IC50 <50 µg/ml [6]: 0.02 µg/mL
Median IC50 against viruses neutralized with an IC50 <50 µg/ml [7]: 0.02 µg/mL
Median IC50 against viruses neutralized with an IC50 <50 µg/ml [8]: 0.05 µg/mL

B2: PGT-121 (antibody, V domains shown)
VH: QMQLQESGPGLVKPSETLSLTCSVSGASISDSYWSWIRRSPGKGLEWIGYVHKSGDTNYSPSLKSRVNLSLDTSKNQVSLSLVAATAADSGKYYCARTLHGRRIYGIVAFNEWFTYFYMDVWGNGTQVTVSS
VL: SDISVAPGETARISCGEKSLGSRAVQWYQHRAGQAPSLIIYNNQDRPSGIPERFSGSPDSPFGTTATLTITSVEAGDEADYYCHIWDSRVPTKWVFGGGTTLTVL
Median IC50 against viruses neutralized with an IC50 <50 µg/ml [1]: 0.02 µg/mL
Median IC50 against viruses neutralized with an IC50 <50 µg/ml [2]: 0.03 µg/mL
Median IC50 against viruses neutralized with an IC50 <50 µg/ml [3]: 0.49 µg/mL
Median IC50 against viruses neutralized with an IC50 <50 µg/ml [4]: 0.02 µg/mL
Median IC50 against viruses neutralized with an IC50 <50 µg/ml [5]: 0.13 µg/mL
Median IC50 against viruses neutralized with an IC50 <50 µg/ml [6]: 0.02 µg/mL
Median IC50 against viruses neutralized with an IC50 <50 µg/ml [7]: 0.01 µg/mL
Median IC50 against viruses neutralized with an IC50 <50 µg/ml [8]: 0.02 µg/mL

B3: 4995_P16 (PGT-145) (antibody, V domains shown)
VH: QVQLVQSGAEVKKPGSSVKVSCKASGNSFSNHDVHWVRQATGQGLEWMGWMSHEGDKTGLAQKFQGRVTITRDSGASTVYMELRGLTADDTAIYYCLTGSKHRLRDYFLYNEYGPNYEEWGDYLATLDVWGHGTAVTVSS
VL: EVVITQSPLFLPVTPGEAASLSCKCSHSLQHSTGANYLAWYLQRPGQTPRLLIHLATHRASGVPDRFSGSGSGTDFTLKISRVESDDVGTYYCMQGLHSPWTFGQGTKVEIK
Median IC50 (µg/ml) against all viruses [9]: 0.21 µg/mL
Median IC50 (µg/ml) against viruses neutralized with an IC50 <50 µg/ml [10]: 2.1 µg/mL
Median IC50 (µg/ml) against viruses neutralized with an IC50 <50 µg/ml [11]: 11.1 µg/mL
Median IC50 (µg/ml) against viruses neutralized with an IC50 <50 µg/ml [12]: 2.18 µg/mL
Percent viruses neutralized, IC50 <0.1 µg/ml [13]: 27%
Percent viruses neutralized, IC50 <1 µg/ml [13]: 52%
Percent viruses neutralized, IC50 <50 µg/ml [13]: 78%
Median IC50 (µg/ml) against viruses neutralized with an IC50 <50 µg/ml [14]: 0.54 µg/mL
Median IC50 (µg/ml) against viruses neutralized with an IC50 <50 µg/ml [15]: 1.76 µg/mL
Median IC50 (µg/ml) against all viruses [16]: 1.17 µg/mL
Median IC50 (µg/ml) against viruses neutralized with an IC50 <50 µg/ml [17]: 0.87 µg/mL
Median IC50 (µg/ml) against viruses neutralized with an IC50 <50 µg/ml [18]: 5.27 µg/mL
Median IC50 (µg/ml) against viruses neutralized with an IC50 <50 µg/ml [19]: 9.74 µg/mL
Median IC50 (µg/ml) against viruses neutralized with an IC50 <50 µg/ml [20]: 4.3 µg/mL
Median IC50 (µg/ml) against all viruses [21]: 1.27 µg/mL
Median IC50 (µg/ml) against all viruses [22]: 0.88 µg/mL

B4: 4995_E20 (PGT-142) (antibody, V domains shown)
VH: QVQLVQSGPEVKKPGSSVKVSCKASGNTFSKYDVHWVRQATGQGLEWVGWISHERDKTESAQRFKGRVTFTRDTSATTAYMELRGLTSDDTAIYYCTRGSKHRLRDYVLYDDYGLINYQEWNDYLEFLDVWGHGTAVTVSS
VL: DTVVTQSPLSLPVTPGEAASMSCSSTQSLRHSNGANYLAWYQHKPGQSPRLLIRLGSQRASGVPDRFSGSGSGTHFTLKISRVEAEDAAIYYCMQGLNRPWTFGKGTKLEIK
Median IC50 (µg/ml) against all viruses [9]: 5.95 µg/mL
Median IC50 (µg/ml) against viruses neutralized with an IC50 <50 µg/ml [10]: 3.75 µg/mL
Median IC50 (µg/ml) against viruses neutralized with an IC50 <50 µg/ml [11]: 0.03 µg/mL
Median IC50 (µg/ml) against viruses neutralized with an IC50 <50 µg/ml [12]: 1.99 µg/mL
Percent viruses neutralized, IC50 <0.1 µg/ml [13]: 23%
Percent viruses neutralized, IC50 <1 µg/ml [13]: 40%
Percent viruses neutralized, IC50 <50 µg/ml [13]: 57%
Median IC50 (µg/ml) against viruses neutralized with an IC50 <50 µg/ml [14]: 9.52 µg/mL
Median IC50 (µg/ml) against viruses neutralized with an IC50 <50 µg/ml [15]: 1.69 µg/mL
Median IC50 (µg/ml) against viruses neutralized with an IC50 <50 µg/ml [17]: 5.15 µg/mL
Median IC50 (µg/ml) against viruses neutralized with an IC50 <50 µg/ml [18]: 9.75 µg/mL
Median IC50 (µg/ml) against viruses neutralized with an IC50 <50 µg/ml [19]: 3.45 µg/mL
Median IC50 (µg/ml) against viruses neutralized with an IC50 <50 µg/ml [20]: 2.37 µg/mL
Median IC50 (µg/ml) against all viruses [21]: 16.4 µg/mL
Median IC50 (µg/ml) against all viruses [22]: 9.46 µg/mL

B5: 4980_N08 (PGT-143) (antibody, V domains shown)
VH: QVQLEQSGAEVKKPGSSVKVSCKASGNTFSKYDVHWVRQATGQGLEWVGWMSHEGDKTESAQRFKGRVTFTRDTSASTAYMELRGLTSDDTAIYYCTRGSKHRLRDYVLYDDYGLINYQEWNDYLEFLDVWGHGTAVTVSS
VL: DTVVTQSPLSLPVTPGEAASMSCTSTQSLRHSNGANYLAWYQHKPGQSPRLLIRLGSQRASGVPDRFSGSGSGTHFTLKISRVEPEDAAIYYCMQGLNRPWTFGKGTKLEIK
Median IC50 (µg/ml) against all viruses [9]: 4.77 µg/mL
Percent viruses neutralized with an IC50 <50 µg/ml [23]: 58%
Median IC50 (µg/ml) against viruses neutralized with an IC50 <50 µg/ml [10]: 2.6 µg/mL
Median IC50 (µg/ml) against viruses neutralized with an IC50 <50 µg/ml [11]: 0.05 µg/mL
Median IC50 (µg/ml) against viruses neutralized with an IC50 <50 µg/ml [12]: 1.85 µg/mL
Percent viruses neutralized, IC50 <0.1 µg/ml [13]: 17%
Percent viruses neutralized, IC50 <1 µg/ml [13]: 37%
Percent viruses neutralized, IC50 <50 µg/ml [13]: 56%
Median IC50 (µg/ml) against viruses neutralized with an IC50 <50 µg/ml [14]: 2.84 µg/mL
Median IC50 (µg/ml) against viruses neutralized with an IC50 <50 µg/ml [15]: 2.02 µg/mL
Median IC50 (µg/ml) against viruses neutralized with an IC50 <50 µg/ml [17]: 4.97 µg/mL
Median IC50 (µg/ml) against viruses neutralized with an IC50 <50 µg/ml [18]: 8.36 µg/mL
Median IC50 (µg/ml) against viruses neutralized with an IC50 <50 µg/ml [19]: 6.08 µg/mL
Median IC50 (µg/ml) against viruses neutralized with an IC50 <50 µg/ml [20]: 1.57 µg/mL
Median IC50 (µg/ml) against all viruses [21]: 41.2 µg/mL
Median IC50 (µg/ml) against all viruses [22]: 13.8 µg/mL
